Data set [1] concerns UmuDAb (Acinetobacter baumannii ATCC 17978). The experiment in a line: SPR.
The subject of data set [2] is DdrR (Acinetobacter baumannii ATCC 17978). The experiment in a line: SPR. For orientation: SPR reads the build-up and loss of mass on a sensor chip optically.

For at least one entry, the source does not settle the construct or the ends of the probe. For part of these data: A negative result means that nothing was seen under these conditions. At least one verdict rests on a figure or table, not on a statement of the authors.

As to “GTTACTACTCGAGCGTCGTCAACTTGAAAATGTAACTTTTTCAAGTTACATT / AATGTAACTTGAAAAAGTTACATTTTCAAGTTGACGA / CGCTCGAGTAGTAAC [umuDAb-ddrR operator (A1S_1389)]”, the binding result in data set [1] (no DdrR, 2-16 nM UmuDAb, KD only shown in figure) is on record as “binds”; in data set [1] (preincubated with 10x DdrR, affinity increased) it was “binds”; in data set [2] (160 nM DdrR) it was “no binding”.

As to “GTTACTACTCGAGCGTCGTCAACTTGATTATGTTACAAATTCAAGTTACATT / AATGTAACTTGAATTTGTAACATAATCAAGTTGACGA / CGCTCGAGTAGTAAC [A1S_2008 operator (umuDC)]”, the binding result in data set [1] (no DdrR) is “binds”; in data set [1] (premixed with DdrR, enhanced), “binds”; in data set [2] (DdrR alone), “no binding”.

For the sequence “GTTACTACTCGAGCGTCGTCAACTTGATTACGTTACGTTTTCAAGTTACATT / AATGTAACTTGAAAACGTAACGTAATCAAGTTGACGA / CGCTCGAGTAGTAAC [A1S_0636 operator (umuDC)]”, the binding result in data set [1] (no DdrR) was “binds”; in data set [1] (premixed with DdrR, enhanced), “binds”; in data set [2] (DdrR alone), “no binding”.

With “GTTACTACTCGAGCGTCGTCAACTTGAATTTGTTACGATTTCAAGTTACATT / AATGTAACTTGAAATCGTAACAAATTCAAGTTGACGA / CGCTCGAGTAGTAAC [A1S_2015 operator (umuDC)]”, the binding result in data set [1] (no DdrR) is “binds”; in data set [1] (premixed with DdrR, enhanced) it was “binds”; in data set [2] (DdrR alone), “no binding”.

For the sequence “GTTACTACTCGAGCGTCGTCAACTTGAATATGTTACAAAATCAAGTTACATT / AATGTAACTTGATTTTGTAACATATTCAAGTTGACGA / CGCTCGAGTAGTAAC [A1S_1174 operator (umuDC)]”, the binding result is reported as “binds” in data set [1] (no DdrR); “binds” in data set [1] (premixed with DdrR, enhanced); “no binding” in data set [2] (DdrR alone).

For the origin of these results see publication doi:10.1101/2020.03.20.000240.
